Test results from the supplement of paper PMC9931576.
Human monoclonal antibodies against the spike receptor-binding domain (heavy:light variable regions). IC50 against pseudoviruses bearing the spike of naturally observed variants; lower = stronger; >10 µg/ml means not reached at the top dose. No active / inactive call. The stated detection limit is 0.0005 µg/ml; values near or below 0.001 µg/ml lie at the floor of the assay.

B1: BD-693 (protein)
chain 1: EVQLVESGGGLVKPGGSLRLSCAASGFTFSLAYMSWVRQAPGKGLEWVGRIKSKTEGGTTDYAAPVKGRFTISRDDSKNTLYLQMNSLKTEDTAVYYCTTSIHARELRPPNAFDIWGQGTMVTVSS
chain 2: QSVLTQPPSVSEAPRQRVTISCSGSSSNIGNNAVNWYQQLPGKAPKLLIYYDDLLPSGVSDRFSGSKSGTSASLAISGLQSEDEADYYCAAWDDSLNGYVFGTGTKVTVL
B2: BD55-824 (protein)
chain 1: QLQLQESGPGLVKPSETLSLTCTVSGGSISSRCSYWGWIRQPPGKGLEWIGSMYYSGATYYNPSLKSRVTISVDTSNNQFSLKMSSVTAADTALYYCAREEGHCSSWGGVYFDHWGQGILVTVSS
chain 2: QSVLTQPPSVSGAPGQRVTISCTGSSSNIGAGYDVHWYQHPPGTAPKLLIYGNNNRPSGVPDRFSGSKSGASASLAITGLQAEDEADYYCQSYDTSLTARVFGGGTRLTVL
B3: BD55-854 (protein)
chain 1: QVQLVQSGAEVKKPGASVKVSCKVSGYTLTELSIHWVRQAPGKGLEWMGGFDHERGETIYAQKFQGRVTMTEDTSTDTAYVELSSLRSEDTAVYYCATGGITMIRGIFYWGQGTLVTVSS
chain 2: QSVLTQPPSVSGAPGQRVTISCTGSSSNIGAGYDVHWYQQLPGTAPKLLIFGYTNRPSGVPARFSDSKSGTSASLAITGLQAEDEADYYCQSYDRSLSGVVFGGGTKLTVL
B4: BD55-822 (protein)
chain 1: QVQLVQSGAEVKKPGSSVKVSCKASGGTFSRYAISWVRQAPGQGLEWMGRIIPILDIANFAQKFQDRVTITADKSTTTAYMELSSLRSEDTAVYYCAREEYYYDRSGSYQYGWFDPWGQGTLVTVSS
chain 2: SYELTQPPSVSVSPGQTARITCSGDALPEKLAYWYQQKSGQAPVLVIYEDSKRPSGIPERFSGSSSGTMATLTISGAQVKDEADYYCYSTDSSGDHRGVFGTGTKVTVL
B5: BD55-868 (protein)
chain 1: QVQLVQSGAEVKKPGASVKVSCKASGYTFTNYYIHWVRQAPGQGLEWMGIINPSGGSISYAQKFQGRVTMTRDTSTSTVYMELSSLRSEDTAVYYCARDIVLIPASSSFDPWGQGTLVTVSS
chain 2: EIVLTQSPATLSLSPGERATLSCRASQSVSSYLAWYQQRPGQAPRLLIYDASNRATGIPVRFSGSGSGTDFTLTISSLEPEDFAVYYCQQRNNWPRMYTFGQGTKLEIK
B6: BD55-852 (protein)
chain 1: QVQLVQSGAEVKKPGSSVKVSCKASGGTFSSHAITWVRQAPGHGLEWMGRIIPILGLTNYAQKFQGRVTITADKSTGTAYMELSSLRSEDTAMYYCARDWRPLMTDYEGQRPTFDCWGQGTLVTVSS
chain 2: DIVMTQTPLSLSVTPGQPASISCKSSQSLLHSDGKTYLYWYLQKPGQPPQLLIYEVFNRFSGVPDRFSGSGSGTDFTLKISRVEAEDVGVYYCMQSIQLPLLTFGGGTKVEIK
B7: BD55-847 (protein)
chain 1: QVQLQESGPGLVKPSETLSLTCTVSGGSISDYYWNWIRQPPGKGLEWIGYVYYSGGTNYIPSLRSRVTISVDTSKNHFSLKLTSVTAADTAIYFCARADAGVLDGFDIWGQGTTVTVSS
chain 2: DIQVTQSPSSLSASVGDRVTITCRASQTITTYFNWYQQRPGKAPKLLIYAASSLQSGVPSRFSGSGSGTDFTLTISGLQPEDFATYYCQQSYTTPWTFGQGTKVELK
B8: BD55-828 (protein)
chain 1: EVQLVQSGAEVKKPGESLKISCKGSGYSFTNYWIGWVRQMPGKGLEWMGIIYPGDSDTRYSPSFQGQVTISADKSISTAYLQWSSLKASDTAMYYCASEMMDCSSASCYWLYPYFDYWGQGTLVTVSS
chain 2: QSALTQPASVSGSPGQSITISCTGTSSDVGGYNYVSWYQQHPGKAPKLMIYDVSNRPSGVSNRFSGSKSGNTASLTISGLQAEDEADYYCSSYTSSSSPIFGGGTKLTVL
B9: BD-692 (protein)
chain 1: EVQLVESGGGLVQPGGSLRLSCAASGFTFSSHGMNWVRQAPGKGLEWVSYISSRDSTIYYADSVKGRFTISRDNAKNSLYLQMNSLRDEDTAVYYCARDNSDYDYSFGAYYFDYWGQGTLVTVSS
chain 2: EIVLTQSPATLSLSPGERATVSCRASQSVSNFLAWYQQKPGQAPRLLIHDASNRATGIPARFSGSGSGTDFTLTISSLEPEDFAVYYCQQRRNWPPVTFGQGTRLEIK
B10: BD-713 (protein)
chain 1: EVQLVESGGGLVQPGRSLRLSCAASGFTFDDYAMHWVRQAPGKGLEWVSGMSWNSGTIGYADSVKGRFTIIRDNAKNSLYLQMIRLRAEDTALYYCAKASPRLDTAMAPFDYWGQGTLVTVSS
chain 2: SYVLTQPPSVSVAPGKTARITCGGNNIGSKSVHWYQQKPGQAPALVIYYDNDRPSGLPERFSGSNSGNTATLTISRVEAGDEADYYCQVWHSSSDSLVFGGGTKLTVL
B11: BD55-75 (protein)
chain 1: QVQLVESGGGVVQPGRSLRLSCAASGFTFSRHAMHWVRQAPGKGLEWVAVLSYDGTDKYYADFVKGRFTISRDSANDMLYLQMDSLGAEDTAVYYCAREDADYGDADFDSWGQGTLVTVSS
chain 2: QSALTQPRSVSGSPGQSVTISCTGTSSDVGGYNYVSWYQQHPGKAPKLMIHNVIKRPSGVPDRFSGSKSGNTASLTISGLQAEDEADYYCCSYAGRFWVFGGGTKLAVL
B12: BD55-833 (protein)
chain 1: EVQLVQSGAEVKKPGESLRISCKGSGYSFISYWISWVRQMPGKGLEWMGRIDPSDSYTNYSPSFQGHVTISADKSISTAYLQWSSLKASDTAIYYCARQSYGDYSDFDYWGQGTLVTVSS
chain 2: EIVLTQSPGTLSLSPGERATLSCRASQSVSSSYLAWYQQKPGQAPRLLISGASSRATDIPDRFSGSGSGTDFTLTISRLEPEDFAVYYCQQYYSSPPTFGQGTKVEIK

Target: SARS-CoV-2 Omicron BA.1 spike pseudovirus
Experiment: pseudovirus neutralization IC50; higher = weaker neutralization
Procedure: (§1)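 Single-round VSV luciferase pseudovirus mixed with antibody dilutions for 1 h and put on Huh-7 cells for about a day; IC50 from the dose curve.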

Binder | pseudovirus neutralization IC50 [µg/mL]
B1 | > 10
B2 | > 10
B3 | > 10
B4 | 1.34
B5 | > 10
B6 | > 10
B7 | > 10
B8 | > 10
B9 | 4.37
B10 | 0.125
B11 | > 10
B12 | > 10

Target: SARS-CoV-2 Omicron BA.2 spike pseudovirus
Experiment: as above
Procedure: as §1

Binder | pseudovirus neutralization IC50 [µg/mL]
B1 | > 10
B2 | > 10
B3 | > 10
B4 | > 10
B5 | > 10
B6 | > 10
B7 | > 10
B8 | > 10
B9 | 2.39
B10 | 0.123
B11 | > 10
B12 | > 10

Target: SARS-CoV-2 Omicron BA.2.75 spike pseudovirus
Experiment: as above
Procedure: as §1

Binder | pseudovirus neutralization IC50 [µg/mL]
B1 | > 10
B2 | > 10
B3 | > 10
B4 | > 10
B5 | > 10
B6 | > 10
B7 | > 10
B8 | > 10
B9 | 2.18
B10 | 0.146
B11 | > 10
B12 | > 10

Target: SARS-CoV-2 Omicron BA.5 spike pseudovirus
Experiment: as above
Procedure: as §1

Binder | pseudovirus neutralization IC50 [µg/mL]
B1 | > 10
B2 | > 10
B3 | > 10
B4 | > 10
B5 | > 10
B6 | > 10
B7 | > 10
B8 | > 10
B9 | 5.51
B10 | 0.963
B11 | > 10
B12 | > 10

Target: SARS-CoV-2 Omicron BQ.1.1 spike pseudovirus
Experiment: as above
Procedure: as §1

Binder | pseudovirus neutralization IC50 [µg/mL]
B1 | > 10
B2 | > 10
B3 | > 10
B4 | > 10
B5 | > 10
B6 | > 10
B7 | > 10
B8 | > 10
B9 | 6.89
B10 | > 10
B11 | > 10
B12 | > 10

Target: SARS-CoV-2 Omicron XBB spike pseudovirus
Experiment: as above
Procedure: as §1

Binder | pseudovirus neutralization IC50 [µg/mL]
B1 | > 10
B2 | > 10
B3 | > 10
B4 | > 10
B5 | > 10
B6 | > 10
B7 | > 10
B8 | > 10
B9 | 4.19
B10 | > 10
B11 | > 10
B12 | > 10

Target: SARS-CoV-2 early D614G spike pseudovirus
Experiment: as above
Procedure: as §1

Binder | pseudovirus neutralization IC50 [µg/mL]
B1 | 0.272
B2 | > 10
B3 | 0.001
B4 | 0.123
B5 | > 10
B6 | > 10
B7 | > 10
B8 | > 10
B9 | 0.314
B10 | 0.104
B11 | 0.016
B12 | > 10
